Values quoted from earlier work as cited in patent US20040186089A1 (priority 2001, published 2004).

System: Bacillus cereus
Settings: known; broad-spectrum β-lactamase producer; cited from earlier work

| Compound | resistance of Bacillus cereus |
| --- | --- |
| Penicillin | resistant |
| CC1(C)S[C@@H]2[C@H](NC(=O)[C@H](N)c3ccccc3)C(=O)N2[C@H]1C(=O)O [ampicillin] | resistant |
